Experiment [1] addresses MERS-CoV M^pro E169A mutant (MERS-CoV).
Experiment [2] addresses MERS-CoV M^pro M298R mutant (MERS-CoV).
The target in experiment [3] is MERS-CoV M^pro T126S mutant (MERS-CoV).
Experiment [4] has as its target MERS-CoV M^pro V4R mutant (MERS-CoV).

This passage reports stoichiometry N and Kd results from PMC4682845, “Critical Assessment of the Important Residues Involved in the Dimerization and Catalysis of MERS Coronavirus Main Protease” (2015).

In the case of MERS-CoV M^pro E169A mutant, in experiment [1], the stoichiometry N (usually a count of units in the complex or per binding partner) turned out to be 8. On to MERS-CoV M^pro M298R mutant, for which, in experiment [2], the stoichiometry N was 2.

For MERS-CoV M^pro T126S mutant, in experiment [3], the Kd (in general, the equilibrium constant for the complex coming apart) was 33.7 µM. This lies in the double-digit micromolar range. As for MERS-CoV M^pro V4R mutant, in experiment [4], the Kd worked out at 23 µM.
